Only a part of the results on these compounds is given; other tests are left out.
Tested on: S. aureus ATCC 6538
Assay: Antimicrobial activity, broth microdilution MIC/MBC
Assay type: cell-based, Staphylococcus aureus
Settings: S. aureus ATCC 6538, 24 h at 37 °C, at least 90% growth inhibition; nd—not detected

SMILES: OCCN(CCO)CCO
- MIC (%): 6.25%

Source: PMC12029836, “Phytotoxicity, Cytotoxicity, and Antimicrobial Activity of Triethanolammonium Amino Acids Salts” (Molecules, 2025)
